Protein sequences can lack the tags named with them.
Target: T1, E1.40COR30 (ELP-HCV core 30 aa fusion) (synthetic construct) (UniProt P27959)
T1 sequence: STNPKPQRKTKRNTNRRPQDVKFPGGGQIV
Assay: binding assay
Details: recruitment into coacervate upon LLPS, 0.1 mM protein, 0.5 uM ssDNA, three media; purified recombinant protein; protein details: ELP (VPGVG)40 fusion; single-stranded DNA

“TTTTTCCTAGAGAGTAGAGCCTGCTTCG [ssDNA 28 nt]”: binds.
